Values of other authors, collected in publication PMC6593967, “The development and prevalidation of an in vitro mutagenicity assay based on MutaMouse primary hepatocytes, Part II: Assay performance for the identification of mutagenic chemicals” (Environmental and Molecular Mutagenesis, 2019).

How the values were obtained:
tk locus = conditions: cited from earlier work
Hprt gene = conditions: cited from earlier work

aflatoxin B1 [AFB1]
Response in MLA (tk locus): strong positive | Response in HPRT test (Hprt gene): strong positive
